# Test results: paper PMC13303869
# The exact form of at least one protein or probe is not confirmed. For some assays here: At least one verdict was read from the data and is not stated in words by the source.
# How the values were obtained:
# AbaAlkX WT = assay: EMSA; settings: interstrand crosslink by 8-atom nitrogen mustard analog (NM8) between guanines (G14 of strand 1 and G11 of strand 2, 5'-GAC/GTC site); both are 2'-fluoro-deoxyguanosine; EMSA: 4 µL protein + 4 µL 20 nM DNA, 25 mM Tris pH 7.5, 100 mM NaCl, 5% glycerol, 0.1 mM EDTA, 1 mM TCEP, room temperature, 20 min; 5% native TBE gel; recombinant protein; protein details: His6 tag removed with 3C protease (pBG102); label: 5'-Cy5 on strand 1, 5'-FAM on strand 2
# AbaAlkX Y300F = assay: EMSA; settings: recombinant protein; protein details: His6 tag removed with 3C protease (pBG102); label: 5'-Cy5 on strand 1, 5'-FAM on strand 2
sequence,measurement,setting,value
TTTATTTTTATTTGACTTTTATTTTT (double strand) [2F-NM8-ICL DNA],binding result,AbaAlkX WT,binds
same,binding result,AbaAlkX Y300F,binds
